From article PMC5864091 come the findings set out here.

The data set deals with CodY (Clostridium difficile JIR8094). The data set is described as follows: EMSA. The following applies: 10 mM GTP, 2 mM Ile/Leu/Val, SinR/SinR': 10 mM Tris-HCl pH 8.0, 0.1 mM DTT, 150 mM KCl, 0.5 mM EDTA, 0.1% Triton X-100, 12.5% glycerol (SinR+SinR' premix 30 min RT). CodY: 10 mM Tris pH 7.5, recombinant protein, protein details: 6His (pET16B). In general terms: A gel shift assay detects complexes by their altered migration in electrophoresis.

For at least one entry, the source does not settle the construct or the ends of the probe.

“TAGTTATAACTTCAAAAAAGACTGAAAATTAAGAAAAAAGAAATATAAAT (double strand) [tcdR upstream CodY site (ORG719/ORG720)]”: under “positive control, label: 32P”, the binding result was “binds”. For the sequence “TAAAATAGAAAATTTTTTTAATTTTCAAAATATATTCTACATATCTAATATGTAATTAC (double strand) [sin locus upstream, putative CodY site (ORG721/ORG722)]”, the binding result (shift at 400 nM CodY, label: 5'-32P (PNK, ORG721)) is reported as “binds”.
